Like-named read-outs stand apart in the source and are kept apart here.
Legend:
[1] = target: T1, BC2L-C-Nt (N-terminal lectin domain of BC2L-C) (Burkholderia cenocepacia, UniProt B4EH86); details: ITC; cited from earlier work
[2] = target: T1, BC2L-C-Nt (N-terminal lectin domain of BC2L-C); experiment: Isothermal titration calorimetry (ITC) affinity for BC2L-C-Nt; assay type: binding; details: 25 °C, 20 mM Tris HCl pH 7.0, 100 mM NaCl, average of at least two independent measurements

Chains of the proteins cited; added tags and fusions are not shown. Residues count along the entry.
UniProt B4EH86, 1-132 limits assumed: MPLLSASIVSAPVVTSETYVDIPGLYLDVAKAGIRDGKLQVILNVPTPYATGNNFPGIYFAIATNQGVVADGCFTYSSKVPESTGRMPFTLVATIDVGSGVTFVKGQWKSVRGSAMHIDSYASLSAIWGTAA

SMILES	Kd [1] [mM]	Kd [2] [mM]
CO[C@@H]1O[C@@H](C)[C@@H](O)[C@@H](O)[C@@H]1O	2.7	
C[C@@H]1O[C@H](NC(=O)c2ccc(-c3cccc(CN)c3)o2)[C@@H](O)[C@H](O)[C@@H]1O [compound 3]		0.159

Source: publication PMC9919437 (Molecules, 2023)
